Anti-infective test results gathered from many reports (values: NIAID ChemDB through PubChem).

Common to all: growth or infection tests; agent: Varicella zoster virus; endpoint: EC50

ECn: concentration that inhibits the pathogen or its effect by n%.

compound | strain | read by | cells | result
CC(C)CS[C@@H]1C=C[C@H](n2cnc3c(N)ncnc32)C1 | OKA | cytopathic effect | HEL | >20 µg/mL
Cn1cc(C(=O)NCc2ccc(Cl)cc2)c(=O)c2cc(CN3CCOCC3)ccc21 | - | plaque count | HFF | 0.1 µM
Nc1nc2c(ncn2CCC(CO)CO)c(=O)[nH]1 | Clinical isolate VZV-23 | cytopathic effect | HEL | 2.62 µM
CCCCOc1ccc(-c2cc3cn([C@H]4C[C@H](O)[C@@H](CO)O4)c(=O)nc3o2)cc1 | 07/1 (TK-) | cytopathic effect | HEL | >50 µM
CCCCCCCCC1=CC2=CN([C@H]3C[C@H](O)[C@@H](CO)O3)C(=O)NC2O1 | - | - | - | 0.008 µM
OC[C@H]1O[C@@H](c2cc(C#CI)c(F)cc2F)C[C@@H]1O | YS/R (TK-) | plaque count | HEL | >20 µM
CC(NC(=S)Nc1ccc(NC(=O)c2nccc3ccccc23)c(C#N)c1)c1ccc(F)cc1 | ELLEN | ELISA | HFF | 0.049 µg/mL
COc1nc(N)nc2c1ncn2OCCOCP(=O)(O)O | ELLEN | plaque count | MRC-5 | <0.09 µg/mL
O=c1[nH]c(=O)n([C@@H]2O[C@H](CO)[C@@H](O)[C@@H]2O)cc1/C=C/Br | Oka PMEA-resistant | cytopathic effect | HEL | 0.0003 µM
Nc1nc2c(ncn2[C@H]2CCC[C@H]2CO)c(=O)[nH]1 | OKA (TK+) | plaque count | HEL | >50 µg/mL
CCCOc1ccc(-c2cc3cn([C@H]4C[C@H](O)[C@@H](CO)O4)c(=O)nc3o2)cc1 | 07/1 (TK-) | cytopathic effect | HEL | >50 µM
Nc1nc2c(ncn2[C@@H](CCO)SCCO)c(=O)[nH]1 | - | cytopathic effect | HFF | 149 µM
C[C@H]1[C@H](O)[C@@H](CO)O[C@H]1n1cc(I)c(=O)[nH]c1=O | CAQU | plaque count | MRC-5 | 0.21 µg/mL
Nc1nc(N)c2ncn([C@H]3CCC[C@H]3CO)c2n1 | OKA (TK+) | plaque count | HEL | >50 µg/mL
CC(O)c1cn([C@@H]2O[C@H](CO)[C@@H](O)[C@@H]2O)c(=S)nc1N | CAQU (TK+) | plaque count | MRC-5 | >205.6 µM
Nc1nc2c(ncn2OCC2COP(=O)(O)CO2)c(=O)[nH]1 | ELLEN | plaque count | MRC-5 | 26 µg/mL
C=Cc1cc([C@H]2C[C@H](O)[C@@H](CO)O2)c(F)cc1F | YS | plaque count | HEL | >200 µM
CC(C)C[C@H](NC(=O)n1nnc2ccccc21)C(=O)NC1CCCCC1 | (TK+)/OKA | plaque count | HEL | >16 µg/mL
Nc1nc2c(ncn2[C@@H]2C=C[C@H](CO)[C@@H](O)C2)c(=O)[nH]1 | 07/1 (TK-) | cytopathic effect | E6SM | 2.1 µg/mL
Nc1nc2c(ncn2COC2COP(=O)(O)OC2)c(=O)[nH]1 | KMCC | plaque count | MRC-5 | 0.6–1.2 µM
O=c1[nH]c(=S)n([C@@H]2O[C@H](CO)[C@@H](O)[C@@H]2O)cc1/C=C/c1ccccc1 | Kanno-Kohmura (TK-) | plaque count | MRC-5 | >258.7 µM
OC[C@H]1O[C@@H](c2cc(C#CBr)c(F)cc2F)C[C@@H]1O | 07/1 (TK-) | plaque count | HEL | >50 µM
Nc1nc2c(ncn2C[C@]2(CO)C[C@H]2CO)c(=O)[nH]1 | OKA (TK+) | plaque count | HEL | 0.05 µg/mL
CCO[C@@H]1[C@@H](OCC)[C@H](Cc2ccccc2)O[C@@H]2CO[C@@H](c3ccc(Cl)cc3)O[C@@H]12 | - | cytopathic effect | HFF | >100 µg/mL
CCCCCCCOc1ccc(-c2cc3cn([C@H]4C[C@H](O)[C@@H](CO)O4)c(=O)nc3o2)cc1 | 07/1 (TK-) | cytopathic effect | HEL | >50 µM
Nc1nc2c(ncn2OCCOCP(=O)(O)O)c(=O)[nH]1 | ELLEN | plaque count | MRC-5 | 0.2 µg/mL
CCCCCCCCCCCCc1cc2cn([C@H]3C[C@H](O)[C@@H](CO)O3)c(=O)nc2o1 | 07 (TK-) | plaque count | HEL | >50 µM
O=C(O)P(=O)(O)O | YS (TK+) | plaque count | HEL | 42.3 µM
Nc1ncc2ncn(C[C@H]3CCC[C@H]3CO)c2n1 | 07/1 (TK-) | plaque count | HEL | >50 µg/mL
Nc1nc2c(ncn2COC(CO)CO)c(=O)[nH]1 | - | plaque count | HFF | 19 µM
O=c1[nH]c(=O)n([C@H]2C[C@H](O)[C@@H](CO)O2)cc1/C=C/Cl | 13 isolates | plaque count | HEL | 0.015 µM
O=c1[nH]cnc2c1ncn2OCCOCP(=O)(O)O | ELLEN | plaque count | MRC-5 | >340 µg/mL
Cc1cn(C(CCO)SCCO)c(=O)[nH]c1=O | - | cytopathic effect | HFF | >200 µM
CN1CCN(n2cc(C(=O)NCc3ccc(Cl)cc3)c(=O)c3cc(CN4CCOCC4)ccc32)CC1 | Webster | plaque count | HFF | 0.8 µM
Cc1cn([C@@H]2O[C@H](CO)[C@H]2CO)c(=O)[nH]c1=O | ELLEN | plaque count | HFF | 0.003 µg/mL
O=c1[nH]c(=O)n([C@@H]2O[C@H](CO)[C@@H](O)[C@@H]2F)cc1/C=C/Br | OKA | plaque count | CCRF-HSB-2 | 0.023 µM
CCC(C)C1NC(=O)N(CC2CCCCC2)C1=O | 07/1 (TK-) | plaque count | HEL | >4 µg/mL
Cc1cn([C@H]2C[C@H](O)[C@@H](CO)O2)c(=S)[nH]c1=O | Kanno-Kohmura (TK-) | plaque count | MRC-5 | >302.6 µM
Nc1nc(=O)n([C@@H]2O[C@H](CO)[C@@H](O)[C@@H]2F)cc1I | YS/R (TK-) | plaque count | HEL | 22.1 µM
CCCCCCOc1ccc(-c2cc3cn([C@H]4C[C@H](O)[C@@H](CO)O4)c(=O)nc3o2)cc1 | YS/R (TK-) | cytopathic effect | HEL | >50 µM
O=c1[nH]c(=O)n([C@H]2C[C@H](O)[C@@H](CO)O2)cc1/C=C/Br | 07/1 (TK-) | plaque count | HEL | 91.9 µM
Nc1nc2c(ncn2CCC(CO)CO)c(=O)[nH]1 | - | plaque count | - | 1–10 µM
Nc1nc2c(ncn2COC(CO)CO)c(=O)[nH]1 | Oka CF1743-resistant | cytopathic effect | HEL | 2.8 µM
CCc1cn([C@@H]2O[C@H](CO)[C@@H](O)[C@@H]2F)c(=O)[nH]c1=O | OKA | plaque count | CCRF-HSB-2 | 1.09 µM
CC(C)C[C@H](NC(=O)n1nnc2ccccc21)C(=O)NC(c1ccccc1)c1ccccc1 | (TK+)/OKA | plaque count | HEL | >0.13 µg/mL
O=C(O)CP(=O)(O)O | YS (TK+) | plaque count | HEL | 35 µM
Cc1cn(C(CCO)OCCO)c(=O)[nH]c1=O | - | cytopathic effect | HFF | 127 µM
C[C@H]1[C@H](O)[C@@H](CO)O[C@H]1n1cc(I)c(N)nc1=O | CAQU | plaque count | MRC-5 | 0.95 µg/mL
Cc1cn([C@@H]2O[C@H](CO)[C@@H](O)[C@@H]2O)c(=O)[nH]c1=O | OKA | plaque count | CCRF-HSB-2 | 1.43 µM
O=C(O)P(=O)(O)O | Clinical isolate VZV-16 | cytopathic effect | HEL | 97.9 µM
O=c1[nH]c(=O)n([C@@H]2O[C@H](CO)[C@@H](O)[C@@H]2F)cc1I | CAQU | plaque count | MRC-5 | 0.0015 µg/mL

3 of the rows above, restated:

compound	strain	read by	cells	result
Nc1nc2c(ncn2COC(CO)CO)c(=O)[nH]1	-	plaque count	HFF	19 µM
O=c1[nH]c(=O)n([C@@H]2O[C@H](CO)[C@@H](O)[C@@H]2O)cc1/C=C/Br	Oka PMEA-resistant	cytopathic effect	HEL	0.0003 µM
Nc1ncc2ncn(C[C@H]3CCC[C@H]3CO)c2n1	07/1 (TK-)	plaque count	HEL	>50 µg/mL

Blank or dashed fields: not listed here. Rows are shuffled and stem from different studies. Two numbers with a dash give a range or band.